Test results as given in ChEMBL document CHEMBL1150779, “Triazolopyrimidine-based dihydroorotate dehydrogenase inhibitors with potent and selective activity against the malaria parasite Plasmodium falciparum” (J Med Chem, 2008).

Key:
[1] = target: Dihydroorotate dehydrogenase (quinone), mitochondrial (Plasmodium falciparum (isolate 3D7), UniProt Q08210, F227A); test: Inhibition of Plasmodium falciparum DHODH F227A mutant
[2] = target: Dihydroorotate dehydrogenase (quinone), mitochondrial (Plasmodium falciparum (isolate 3D7), UniProt Q08210, R265A); test: Inhibition of Plasmodium falciparum DHODH R265A mutant

Cc1cc(Nc2ccc3ccccc3c2)n2ncnc2n1
IC50 [1]: 44 µM
IC50 [2]: 6.1 µM
